Anti-infective test results gathered from many reports (values: NIAID ChemDB through PubChem).

Shared fields: growth or infection tests; organism: Mycobacterium tuberculosis

Percent inhibition refers to the dose given; in toxicity tests it is the harm to the cells. Blank or dashed fields: not listed here. ECn is the concentration giving n% inhibition of infection, replication or growth. Lines come from different laboratories, so protocols vary. MIC bound comes from a single tested concentration. A number after MIC or MFC names an inhibition level or a share of isolates.

SMILES,read by,dose,mutations,strain or isolate,conditions,endpoint,value
O=C(COc1cnccn1)N/N=c1\scc(-c2ccc(F)cc2)n1-c1ccc(Cl)cc1Cl,,,,H37Rv,,MIC,11 µg/mL
NC1CN(c2c(F)cc3c(=O)c(C(=O)O)cn(C4CC4)c3c2Cl)CC12CC2,,,,H37Rv (RFP-susceptible),,MIC,0.1 µg/mL
C=CCN1C(=O)C(C)S/C1=N\N=C1/C(=O)Nc2ccccc21,,12 µg/mL,,H37Rv,,inhibition,5%
O=C(O)c1cn(C2CC2F)c2c(Cl)c(N3CC4CCCNC4C3)c(F)cc2c1=O,,,,68 (RFP-susceptible),,MIC,0.025 µg/mL
COc1ccc2c(c1)OC(c1ccc(Cl)cc1)CC2=O,,,,H37Rv,,EC50,>12.5 µg/mL
CO[C@H]1/C=C/O[C@@]2(C)Oc3c(C)c(O)c4c(O)c(c(/C=N/N5CCN(C)CC5)c(O)c4c3C2=O)NC(=O)/C(C)=C\C=C\[C@H](C)[C@H](O)[C@@H](C)[C@@H](O)[C@@H](C)[C@H](OC(C)=O)[C@@H]1C,,,,ATCC 35837 (ethambutol-resistant),,MIC50,0.4 µM
CCN(CC)C(=S)S[Se](SC(=S)N(CC)CC)(SC(=S)N(CC)CC)SC(=S)N(CC)CC,,,,ETA-R,,MIC,1.6 µg/mL
CN(C)c1ccc(/C=N/NC(=O)c2ccc(F)cc2)cc1,,6.25 µg/mL,,H37Rv,,inhibition,5%
CO/N=C1\CN(c2nc3c(cc2F)c(=O)c(C(=O)O)cn3C2CC2)CC1CN,,,,206 isolates (susceptible),,MIC90,8 µg/mL
O=C(N=Nc1c(O)[nH]c2ccccc12)c1ccccc1O,BACTEC,,,H37Rv,,MIC bound,>12.5 µg/mL
O=C(Oc1cc(Cl)ccc1C(=O)Nc1cccc(Br)c1)c1cnccn1,,,,H37Rv 331/88,14 d,MIC,2 µM
Clc1ccccc1-c1c(C(c2ccccc2)n2ccnc2)cnn1-c1ccccc1,,,,ATCC 35837 (ethambutol-resistant),,MIC50,41.1 µM
O=C(N/N=C/c1cccs1)c1ccc([N+](=O)[O-])cc1,,,,H37Rv,,MIC,>6.25 µg/mL
CCn1c(SCC(=O)N=Nc2c(O)[nH]c3ccc(Br)cc23)nc2ccccc2c1=O,,,,H37Rv,,MIC,>12.5 µg/mL
CCOC(=O)C(CC)Oc1cccc2c1oc1ccccc12,BACTEC,,,H37Rv,,MIC bound,>12.5 µg/mL
CO[C@H]1/C=C/O[C@@]2(C)Oc3c(C)c(O)c4c(O)c(c(/C=N/N5CCN(C)CC5)c(O)c4c3C2=O)NC(=O)/C(C)=C\C=C\[C@H](C)[C@H](O)[C@@H](C)[C@@H](O)[C@@H](C)[C@H](OC(C)=O)[C@@H]1C,broth dilution,,Bedaquiline-resistant I66M,,,MIC80,0.04 µM
NNC(=O)c1ccncc1,,,,6509/96,7 d,MIC,2 µM
C(=N\Nc1nnc2c3cccnc3c3ccccc3c2n1)/c1ccc2c(c1)OCO2,BACTEC,12.5 µg/mL,,H37Rv,,inhibition,81%
CN(C)CCCN1c2ccccc2Sc2ccc(Cl)cc21,,,,Isolate A drug-susceptible,,MBC,20 µg/mL
Clc1ccc(-n2ncc(C(c3ccccc3)n3ccnc3)c2-c2ccccc2Cl)c(Cl)c1,,,,ATCC 35828 (pyrazinamide-resistant),,MIC90,60.2 µM
O=C(COc1cnccn1)N/N=C1\SCC(=O)N1c1ccc(Cl)cc1,,,,H37Rv,,MIC,105 µg/mL
Cc1ccc(NCCN(C)C)c2c(=O)c3cc(O)ccc3oc12,,,,TAC-R,,MIC,12.5 µg/mL
Fc1ccc(-n2ncc(C(c3ccccc3)n3ccnc3)c2-c2ccccc2)cc1,,,,ATCC 35822 (isoniazid-resistant),,MIC50,≥100 µM
COC(=O)c1ccc(/C=C(\c2ccc([N+](=O)[O-])o2)S(=O)(=O)c2ccc(NC(C)=O)cc2)o1,BACTEC,12.5 µg/mL,,H37Rv,,inhibition,21%
O=C(Oc1ccc(Cl)cc1C(=O)Nc1cccc(C(F)(F)F)c1)c1cnccn1,,,,H37Rv 331/88,14 d,MIC,1 µM
CC[C@H]1OC(=O)[C@H](C)[C@@H](O[C@H]2C[C@@](C)(OC)[C@@H](O)[C@H](C)O2)[C@H](C)[C@@H](O[C@@H]2O[C@H](C)C[C@H](N(C)C)[C@H]2O)[C@](C)(OC)C[C@@H](C)C(=O)[C@H](C)[C@@H](O)[C@]1(C)O,,,,S-5M (susceptible),,MIC,>8 µg/mL
O=C(CSc1nc2ccc(Cl)cc2c(=O)n1-c1ccccc1)N=Nc1c(O)[nH]c2ccc(Br)cc12,,12 µg/mL,,H37Rv,,inhibition,88%
O=C(COc1cnccn1)N/N=c1\scc(-c2ccc(Br)cc2)n1-c1ccc(Cl)cc1,,,,H37Rv,,MIC,10.7 µg/mL
NNC(=O)c1ccncc1,broth dilution,,,My 331/88,21 d,MIC100,0.5 µM
COc1cc2c(c(OC)c1O)C(=O)CC(c1ccc(O)cc1)O2,BACTEC,12.5 µg/mL,,H37Rv,,inhibition,11%
NNC(=O)c1ccncc1,broth dilution,,,,,MIC80,0.02 µM
O=C(NNC(=O)c1ccncc1)Nc1c(Cl)cc(Cl)cc1Cl,broth dilution,,,My 331/88,21 d,MIC100,4 µM
CCNC(=S)N=Nc1c(O)[nH]c2ccccc12,,12 µg/mL,,H37Rv,,inhibition,7%
C/C=C1/C(=O)O[C@]23C=C[C@@H]4C(C(=O)OC)=CO[C@H](O[C@@H]12)[C@@H]43,MTT,,,H37Rv,,MIC,2.1 µg/mL
NC(=O)c1cnccn1,,,,Isolate 94-735,,MIC,300 µg/mL
O=C(NNC(=O)c1ccncc1)Nc1ccc(Cl)c(Cl)c1,broth dilution,,,My 331/88,14 d,MIC100,125 µM
Clc1ccc(-c2c(C(c3ccccc3)n3ccnc3)cnn2-c2ccc(Cl)cc2Cl)cc1,,,,ATCC 35828 (pyrazinamide-resistant),,MIC90,>100 µM
CCN=c1cc2n(-c3ccc(Cl)cc3)c3ccccc3nc-2cc1Nc1ccc(Cl)cc1,,,,2225 (SM INH RIF-RES),,MIC,0.25 µg/mL
Clc1ccc(-c2c(C(c3ccccc3)n3ccnc3)cnn2-c2ccccc2)cc1,,,,ATCC 35820 (streptomycin-resistant),,MIC90,≥100 µM
O=C(Oc1cc(Cl)ccc1C(=O)Nc1ccc(Cl)c(Cl)c1)c1cnccn1,,,,H37Rv 331/88,14 d,MIC,2 µM
COc1ccc(C2CC(=O)c3c(OC)cc(OC)cc3O2)cc1,,,,,,EC50,>12.5 µg/mL
C1CCCN(NC2=NCCO2)CC1,BACTEC,12.5 µg/mL,,H37Rv,,inhibition,45%
O=C(NNC(=O)c1ccncc1)Nc1cc(Cl)cc(Cl)c1,broth dilution,,,My 331/88,21 d,MIC100,62.5 µM
CN=C(N=Nc1c(O)[nH]c2ccccc12)SCC(=O)c1ccccc1,,,,H37Rv,,MIC,12.5 µg/mL
CC(C)N=c1cc2n(-c3ccc(Cl)cc3)c3ccccc3nc-2cc1Nc1ccc(Cl)cc1,,,,H37Rv,,MIC,0.12 µg/mL
COc1cccc2c1C(=O)c1c(O)c3c(c(O)c1C2=O)C[C@@](O)(/C(C)=N/NC(N)=O)CC3OC1CC(N)C(O)C(C)O1.Cl,,,,TAC-R,,MIC,6.3 µg/mL
CCCCN1C(=O)C(C)S/C1=N\N=C1/C(=O)Nc2ccccc21,,12 µg/mL,,H37Rv,,inhibition,14%
O=C(N/N=C/c1ccc(F)cc1)c1ccc(F)cc1,,,,H37Rv,,EC50,>6.25 µg/mL
CO[C@H]1/C=C/O[C@@]2(C)Oc3c(C)c(O)c4c(O)c(c(/C=N/N5CCN(C)CC5)c(O)c4c3C2=O)NC(=O)/C(C)=C\C=C\[C@H](C)[C@H](O)[C@@H](C)[C@@H](O)[C@@H](C)[C@H](OC(C)=O)[C@@H]1C,,,,TF274,,MIC,100 µM
Fc1ccc(-c2c(C(c3ccccc3)n3ccnc3)cnn2-c2ccc(F)cc2F)cc1,,,,ATCC 35828 (pyrazinamide-resistant),,MIC90,≥100 µM
O=C(Oc1cc(Cl)ccc1C(=O)Nc1ccc(C(F)(F)F)cc1)c1cnccn1,,,,multidrug resistant 234/2005,14 d,MIC,0.5 µM
Cc1cc(O)c2c(c1)C(=O)c1c(c(O)cc(O)c1-c1c(O)cc(O)c3c1C(=O)c1cc(C)cc(O)c1C3=O)C2=O,BACTEC,,,H37Rv,,MIC,≥12.5 µg/mL
O=C(N/N=C/c1ccc[nH]1)c1ccc(F)cc1,,,,H37Rv,,EC50,>6.25 µg/mL
Fc1ccc(-n2ncc(C(c3ccccc3)n3ccnc3)c2-c2ccccc2)c(F)c1,,,,ATCC 27294,,MIC90,>100 µM
CCCCC/C=C\C/C=C\CCCCCCCC(=O)N[C@H]1C[C@@H](O)[C@@H](O)NC(=O)[C@@H]2[C@@H](O)[C@@H](C)CN2C(=O)[C@H]([C@H](C)O)NC(=O)[C@H]([C@H](O)[C@@H](O)c2ccc(O)cc2)NC(=O)[C@@H]2C[C@@H](O)CN2C(=O)[C@H]([C@H](C)O)NC1=O,BACTEC,,,H37Rv,,MIC,≥12.5 µg/mL
O=C(COc1cnccn1)N/N=c1\scc(-c2ccc(F)cc2)n1-c1ccc(Cl)cc1[N+](=O)[O-],,,,H37Rv,,MIC,9 µg/mL
FC(F)(F)c1cccc(-c2nc3nc(Cl)c(Cl)nc3[nH]2)c1,resazurin,,,H37Rv,,MIC bound,>6.25 µg/mL
Cc1ccc(NC(=O)NNC(=O)c2ccncc2)cc1,broth dilution,,,My 331/88,21 d,MIC100,62.5 µM
C/C=c1\[nH]c(=O)/c(=C/c2ccccc2)[nH]c1=O,BACTEC,,,H37Rv,,MIC bound,>12.5 µg/mL
CCOc1cc(O)c(C(=O)/C=C/c2ccccc2)c(OCC)c1,,,,H37Rv,,EC50,>12.5 µg/mL
CC(=O)Cn1c(=O)oc2ccccc2c1=O,,6.25 µg/mL,,H37Rv,,inhibition,20%
Fc1ccccc1-n1ncc(C(c2ccccc2)n2ccnc2)c1-c1ccccc1,,,,ATCC 35820 (streptomycin-resistant),,MIC50,≥100 µM
O=C(N/N=C/c1ccco1)c1ccc(F)cc1,,6.25 µg/mL,,H37Rv,,inhibition,5%
CO[C@H]1/C=C/O[C@@]2(C)Oc3c(C)c(O)c4c(O)c(c5c(c4c3C2=O)NC2(CCN(CC(C)C)CC2)N=5)=NC(=O)/C(C)=C\C=C\[C@H](C)[C@H](O)[C@@H](C)[C@@H](O)[C@@H](C)[C@H](OC(C)=O)[C@@H]1C,,,,S-2M (susceptible),,MIC,0.05 µg/mL
O=C(N/N=C/c1ccc([N+](=O)[O-])s1)c1ccc([N+](=O)[O-])cc1,,,,H37Rv,,MIC,<6.25 µg/mL
CCOC(=O)Nc1ccc2c(c1[N+](=O)[O-])c1cc([N+](=O)[O-])cc([N+](=O)[O-])c1n2CC,BACTEC,,,H37Rv,,MIC bound,>12.5 µg/mL
O=C(Oc1ccc(Cl)cc1C(=O)Nc1ccc(Cl)c(Cl)c1)c1cnccn1,,,,multidrug resistant 9449/2006,14 d,MIC,0.5 µM
O=C(Nc1ccc(C2=NCCN2)cc1)c1cccc(C(=O)Nc2ccc(C3=NCCN3)cc2)c1Cl,BACTEC,12.5 µg/mL,,H37Rv,,inhibition,78%
COc1ccccc1/C=C/C(=O)c1ccccc1O,,12.5 µg/mL,,H37Rv,,inhibition,39%
O=C(O)c1cc(=O)c2ccccc2[nH]1,BACTEC,,,H37Rv,,MIC,≥12.8 µg/mL
CCC1CN(c2c(F)cc3c(=O)c(C(=O)O)cn([C@@H]4C[C@@H]4F)c3c2OC)CCN1,,,,44 (RFP-resistant),,MIC,0.25 µg/mL
CC12CCC(O1)C1CN(CC/C(N)=N/O)CC12,BACTEC,,,H37Rv,,MIC bound,>12.5 µg/mL
NC1[C@H]2CN(c3nc4c(cc3F)c(=O)c(C(=O)O)cn4-c3ccc(F)cc3F)C[C@@H]12,,,,206 isolates (susceptible),,Mean MIC,29.9 µg/mL
CC(C)CCC[C@@H](C)C1CC[C@H]2[C@@H]3CC=C4N(c5ccccc5)C(=O)CC[C@]4(C)[C@H]3CC[C@]12C,BACTEC,6.25 µg/mL,,H37Rv,,inhibition,54%
CN[C@@H]1[C@H](O[C@H]2[C@H](O[C@H]3[C@H](O)[C@@H](O)[C@H](N=C(N)N)[C@@H](O)[C@@H]3N=C(N)N)O[C@@H](C)[C@]2(O)C=O)O[C@@H](CO)[C@H](O)[C@H]1O,broth dilution,,Rifampicin-resistant,19000,,MIC80,0.3 µM
C=C(C)C(=O)O[C@H]1CC2=C[C@@H](C[C@@]3(C)O[C@H]3[C@H]3OC(=O)C(=C)[C@@H]31)OC2=O,BACTEC,,,H37Rv,,MIC,≥12.8 µg/mL
Clc1ccc(Nc2cc3nc4ccccc4n(-c4ccc(Cl)c(Cl)c4)c-3cc2=NC2CCNCC2)cc1Cl,,,,2230 (SM INH RIF-RES),,MIC,0.25 µg/mL